The values below come from patent publication US20240059738A1, “SWITCHING PEPTIDE AND MULTIPLEX IMMUNOASSAY METHOD USING SAME” (OPTOLANE TECHNOLOGIES INC., priority 2021, published 2024).

Like-named read-outs stand apart in the source and are kept apart here.

For the data set, the system named is hepatitis B surface antigen (HBsAg).

Turning to “TYLEWYPQKPGQSPKLLIYK [L1, TYLEW YPQKP GQSPK LLIYK]”, under “fluorescence at the bottom of the microplate”, the LOD was 587 ng/mL. For the same sequence, where the note is “fluorescence in the solution”, the “dynamic range, lower limit” value is 136 ng/mL and the “dynamic range, upper limit” value is 33 µg/mL. In addition, where the note is “fluorescence in the solution, HBsAg 0.3 to 10^5 ng/ml”, the LOD was 56 ng/mL.
